Results of unrelated studies side by side (data: NIAID ChemDB).

All rows: tests in culture; agent: Vesicular stomatitis virus; read-out: EC50

An empty or dashed field is not shown.

compound | cell line | read by | result
O=c1ccn([C@H]2C[C@H](O)[C@@H](CO)O2)c(=O)[nH]1 | E6SM | cytopathic effect | >2000 µM
Nc1ncnc2c1ccn2[C@@H]1O[C@H](CO)[C@@H](O)[C@H]1O | PRK | cytopathic effect | 0.02 µg/mL
OC[C@H]1O[C@@H](n2cnc3cc(Cl)c(Cl)cc32)[C@H](O)[C@H]1O | HeLa | cytopathic effect | >10 µg/mL
O=c1[nH]c(=O)n([C@H]2C[C@H](O)[C@@H](CO)O2)cc1/C=C/Br | E6SM | cytopathic effect | >200 µM
Nc1nc2c(nnn2C[C@H]2CC[C@@H](CO)C2)c(=O)[nH]1 | E6SM | cytopathic effect | >200 µg/mL
Nc1ncnc2c1ncn2CCOCP(=O)(O)O | - | cytopathic effect | >185 µM
Nc1nccc2c1ncn2[C@@H]1C=C[C@@H](O)[C@H]1O | PRK | cytopathic effect | 0.2 µg/mL
O=c1[nH]c(=O)n([C@H]2C[C@H](O)[C@@H](CO)O2)cc1C1CCCC1 | E6SM | cytopathic effect | >1200 µM
Nc1ccn([C@@H]2C[C@H](CO)[C@@H](O)[C@H]2O)c(=O)n1 | BHK-21 | cytopathic effect | 2 µg/mL
Nc1nc(N)c2nnn(C[C@H]3CC[C@@H](CO)C3)c2n1 | E6SM | cytopathic effect | >400 µg/mL
Nc1cc(OC[C@H](CO)OCP(=O)(O)O)nc(N)n1 | - | cytopathic effect | >15 µM
NC(=O)c1ncn([C@@H]2O[C@H](CO)[C@@H](O)[C@H]2O)n1 | E6SM | cytopathic effect | 192 µM
Nc1nccc2c1ncn2[C@@H]1C[C@H](CO)[C@@H](O)[C@H]1O | PRK | cytopathic effect | 2 µg/mL
O=c1[nH]c(=O)n([C@H]2C[C@H](O)[C@@H](CO)O2)cc1/C=C/Br | BHK-21/C13 | plaque count | >500 µM
OCCOC(CCO)n1cnc2cc(Cl)c(Cl)cc21 | HeLa | cytopathic effect | >200 µg/mL
Nc1nccc2c1ncn2[C@@H]1C[C@H](CO)[C@@H](O)[C@H]1O | ESM | cytopathic effect | 0.2 µg/mL
Nc1nc(N)c2ncn(C[C@H]3CC[C@@H](CO)C3)c2n1 | E6SM | cytopathic effect | >400 µg/mL
CC(C)[Si]1(C(C)C)OC[C@H]2O[C@@H](n3cnc4cc(Cl)c(Cl)cc43)[C@@H](O)[C@H]2O[Si](C(C)C)(C(C)C)O1 | HeLa | cytopathic effect | >400 µg/mL
Nc1nccc2c1ncn2[C@@H]1C[C@H](CO)[C@@H](O)[C@H]1O | E6SM | cytopathic effect | 0.7 µg/mL
C[C@H](COc1cc(N)nc(N)n1)OCP(=O)(O)O | - | cytopathic effect | >180 µM
OCCOC([C@H](O)CO)n1cnc2cc(Cl)c(Cl)cc21 | HeLa | cytopathic effect | >200 µg/mL
Nc1ncnc2c1c(Br)cn2[C@@H]1O[C@H](CO)[C@@H](O)[C@H]1O | PRK/E6SM | cytopathic effect | 0.07 µg/mL
OC[C@H]1O[C@@H](n2cnc3cc(Cl)c(Cl)cc32)[C@@H](O)[C@H]1O | HeLa | cytopathic effect | >100 µg/mL
Nc1nccc2c1ncn2[C@@H]1O[C@H](CO)[C@@H](O)[C@H]1O | PRK | cytopathic effect | 0.3 µg/mL

Repeating the final 3 entries:

compound	cell line	read by	result
Nc1ncnc2c1c(Br)cn2[C@@H]1O[C@H](CO)[C@@H](O)[C@H]1O	PRK/E6SM	cytopathic effect	0.07 µg/mL
OC[C@H]1O[C@@H](n2cnc3cc(Cl)c(Cl)cc32)[C@@H](O)[C@H]1O	HeLa	cytopathic effect	>100 µg/mL
Nc1nccc2c1ncn2[C@@H]1O[C@H](CO)[C@@H](O)[C@H]1O	PRK	cytopathic effect	0.3 µg/mL

ECn is the concentration giving n% inhibition of infection, replication or growth. Neighbouring rows are from separate reports.